Results taken from PubChem BioAssay AID652067 (The Scripps Research Institute Molecular Screening Center, 2013).
This is a selection; strong and weak results do not stand in their true shares. The source made the active and inactive calls.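 How the source made its calls: active means activation above the mean of all tested compounds plus 3 SD (cut at about 5.5% in these data); inactive means the rest.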

test system: DAF-12 nuclear receptor (Haemonchus contortus); assay: hcDAF-12 driven luciferase reporter activation – cell-based, luminescence, HEK293, lit1-tk-luc reporter, primary screen (AID 652067); settings: HEK293 hcDAF-12 lit1-tk-luc reporter, at 6.8 µM, hits give high values, 0% DMSO, 100% Δ7-dafachronic acid;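 further: 100% = response to 3 µM Δ7-dafachronic acid high control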

| Compound | activation |
| --- | --- |
| c1ccc(CN2CCC(Nc3ccccc3)CC2)cc1 | inactive: 0.08% |
| C/C(N)=N\P(=O)(Oc1ccccc1)Oc1ccccc1 | inactive: 0.3% |
| CCCN1CCC(Nc2cc(OC)cc(OC)c2)CC1 | inactive: 3.05% |
| O=c1[nH]c2ccccc2n1C1CCN(C(c2ccccc2)c2nnnn2C2CCCC2)CC1 (stereo unspecified) | inactive: -1.23% |
| Cc1cc(N(CCCl)CCCl)ccc1C=O | inactive: -1.63% |
| CN(C)C1(CNC(=O)c2cccc(C#N)c2)CCCCC1 | inactive: 0.85% |
| CC(C)(C)n1nnnc1C(c1cccc2ccccc12)N1CCC(n2c(=O)[nH]c3ccccc32)CC1 (stereo unspecified) | inactive: -3.6% |
| CC(C)(C)OC(=O)N1CCC(N(C(=O)c2ccccc2)c2ccc(Cl)cc2)CC1 | inactive: -0.53% |
| N#Cc1ccc(C(=O)NCC2(N3CCCCC3)CCCCC2)cc1 | inactive: -0.67% |
| N/C(=N\O)c1c(N)no[n+]1[O-] | inactive: -0.23% |
| COc1cccc(C(c2nnnn2C(C)(C)C)N2CCC(n3c(=O)[nH]c4ccccc43)CC2)c1OC (stereo unspecified) | inactive: -3.26% |
| CCOC(=O)N1CCC(Nc2ccc(C)cc2)CC1 | inactive: -3.71% |
| CCCCn1nnnc1C(c1cccc(OC)c1OC)N1CCC(n2c(=O)[nH]c3ccccc32)CC1 (stereo unspecified) | inactive: -3.25% |
| O=C(OC1CN2CCC1CC2)C1c2ccccc2C=Cc2ccccc21 (stereo unspecified) | inactive: -0.72% |
| O=c1[nH]c2ccccc2n1C1CCN(C(c2cccs2)c2nnnn2C2CCCC2)CC1 (stereo unspecified) | inactive: -1.48% |
| O=C(NCC1(N2CCOCC2)CCCCC1)c1cc(Br)ccc1Cl | inactive: -2.59% |
| CCCCn1nnnc1C(c1ccccc1)N1CCC(n2c(=O)[nH]c3ccccc32)CC1 (stereo unspecified) | inactive: -1.49% |
| COc1cc(C(=O)NCC2(N3CCOCC3)CCCCC2)cc(OC)c1C | inactive: -1.23% |
| COc1ccc(C(=O)NCC2(N3CCOCC3)CCCCC2)cc1OC | inactive: -0.55% |
| O=c1[nH]c2ccccc2n1C1CCN(C(c2ccnc3ccccc23)c2nnnn2C2CCCC2)CC1 (stereo unspecified) | inactive: -2.78% |
| O=c1[nH]c2ccccc2n1C1CCN(C(c2cccs2)c2nnnn2C2CCCCC2)CC1 (stereo unspecified) | inactive: -3.71% |

| Compound | activation |
| --- | --- |
| NC(=O)C1(Nc2ccccc2)CCN(Cc2ccccc2)CC1 | inactive: -2.94% |
| CCC(CO)(C(=O)OC1CN2CCC1CC2)c1ccccc1 (stereo unspecified) | inactive: -0.51% |
| COc1cc(OC)cc(C(=O)NCC2(N3CCOCC3)CCCCC2)c1 | inactive: -1.77% |
| COc1cccc(C(c2nnnn2C2CCCC2)N2CCC(n3c(=O)[nH]c4ccccc43)CC2)c1OC (stereo unspecified) | inactive: -2.97% |
| COc1cccc(C(=O)N(c2cc(C)cc(C)c2)C2CCN(C(=O)OC(C)(C)C)CC2)c1 | inactive: 0.62% |
| CN1CCC(Nc2ccc(Cl)cc2)CC1 | inactive: -2.01% |
| CCOc1ncccc1C(=O)NCC1(N2CCOCC2)CCCCC1 | inactive: -1.25% |
| CN1CCC(Nc2ccc(F)c(Cl)c2)CC1 | inactive: -2.33% |
| CCCOc1ccc(C(=O)NCC2(N(C)C)CCCCC2)cc1 | inactive: -0.4% |
| O=c1[nH]c2ccccc2n1C1CCN(C(c2cc3ccccc3o2)c2nnnn2C2CCCC2)CC1 (stereo unspecified) | inactive: -1.54% |
| CC(C)(C)OC(=O)N1CCC(Nc2ccccc2)CC1 | inactive: -0.84% |
| O=C(O)C1(Nc2ccccc2)CCN(Cc2ccccc2)CC1 | inactive: -1% |
| NN(c1ccccc1)C1CCN(CCc2ccccc2)CC1 | inactive: -1.41% |
| Cc1ccccc1NC1(C#N)CCN(Cc2ccccc2)CC1 | inactive: -0.7% |
| CC(C)(C)n1nnnc1C(c1ccnc2ccccc12)N1CCC(n2c(=O)[nH]c3ccccc32)CC1 (stereo unspecified) | inactive: -1.32% |
| COc1ccc(C(c2nnnn2C2CCCCC2)N2CCC(n3c(=O)[nH]c4ccccc43)CC2)cc1 (stereo unspecified) | inactive: 0.08% |
| CCN1CCC(Nc2cccc(F)c2)CC1 | inactive: 1.24% |
| O=C(NCC1(N2CCCCC2)CCCCC1)c1ccco1 | inactive: 1.03% |
| Cn1c(=O)[nH]cc(N(CCCl)CCCl)c1=O | inactive: -0.32% |
| CN(C)c1ccc(C(=O)NCC2(N3CCCCC3)CCCCC2)cc1 | inactive: 1.32% |
| O=c1[nH]c2ccccc2n1C1CCN(C(c2ccnc3ccccc23)c2nnnn2C2CCCCC2)CC1 (stereo unspecified) | inactive: -0.75% |

| Compound | activation |
| --- | --- |
| COc1cc(OC)cc(C(=O)NCC2(N3CCCCC3)CCCCC2)c1 | inactive: 1.26% |
| CC(=O)N(c1ccccc1)C1CCNCC1 | inactive: 0.65% |
| COc1cccc(C(c2nnnn2C2CCCCC2)N2CCC(n3c(=O)[nH]c4ccccc43)CC2)c1OC (stereo unspecified) | inactive: -3.59% |
| CCC(c1nnnn1C1CCCCC1)N1CCC(n2c(=O)[nH]c3ccccc32)CC1 (stereo unspecified) | inactive: 0.05% |
| Cc1ccc(NC2(C#N)CCN(Cc3ccccc3)CC2)cc1 | inactive: -0.72% |
| Cc1ccc(C(=O)NCC2(N3CCCCC3)CCCCC2)o1 | inactive: 0.57% |
| Fc1ccccc1NC1CCN(Cc2ccccc2)CC1 | inactive: -1.29% |
| O=c1[nH]c2ccccc2n1C1CCN(C(c2ccccc2)c2nnnn2C2CCCCC2)CC1 (stereo unspecified) | inactive: -2.46% |
| O=c1[nH]c2ccccc2n1C1CCN(C(c2cccc3ccccc23)c2nnnn2C2CCCC2)CC1 (stereo unspecified) | inactive: 1.38% |
| COc1cc(C(=O)NCC2(N(C)C)CCCCC2)ccc1OC(F)F | inactive: -1.48% |
| CCOC(=O)N1CCC(Nc2cccc(C)c2)CC1 | inactive: -4.45% |
| CCOc1ccc(C)cc1CN(CCCl)CCCl | inactive: -0.17% |
| CC(C)(C)n1nnnc1C(c1ccccc1)N1CCC(n2c(=O)[nH]c3ccccc32)CC1 (stereo unspecified) | inactive: 0.54% |
| O=C1CCN(Cc2ccccc2)CC1 | inactive: -1.52% |
| O=C(NCC1(N2CCCCC2)CCCCC1)c1ccc(F)cc1 | inactive: 0.05% |
| CCCCn1nnnc1C(c1cc2ccccc2o1)N1CCC(n2c(=O)[nH]c3ccccc32)CC1 (stereo unspecified) | inactive: 3.06% |
| O=P1(N(CCCl)CCCl)SCCCS1 | inactive: -1.14% |
| CCCCOc1ccc(C(=O)NCC2(N3CCOCC3)CCCCC2)cc1 | inactive: 1.05% |
| COc1ccc(NC2CCN(CCc3ccccc3)CC2)c(OC)c1 | inactive: -2.1% |
